What was measured:
[1] = system: L. infantum axenic amastigotes; test: In vitro leishmanicidal activity (MTT) in axenic amastigote forms; assay type: cell-based, Leishmania infantum; conditions: CC50 (PBMCs) / IC50 amastigotes
Procedure: (§1) Promastigote forms of L. infantum [IOC/L0579 (MHOM/BR/1974/PP75)] were cultured in Schneider’s medium (pH 7.0), supplemented with 20% fetal bovine serum (FBS), 1% human male urine, and 1% antibiotic solution (penicillin 200 U/mL and streptomycin 0.1 mg/mL), and maintained at 26 ± 1 °C (B.O.D SL 200—SOLAB, Piracicaba, SP, BR). The generation of extracellular axenic amastigote forms of L. infantum was based on protocols previously described by Debrabant et al. (2004), with modifications that included the use of Schneider’s medium adjusted to pH 5.5 and incubation at 37 °C (CO2 Series 3517-2, Cornelius, OR, USA).
In 96-well plates, initial screening was performed with serial dilutions (400 to 3.12 μM) of compounds 3a–c and 4a–c in duplicate. […] AmB was used as a positive control due to its established leishmanicidal activity, tested at concentrations ranging from 10 to 0.078 μM. Following 72 h-treatment of promastigotes and 24 h-treatment of amastigotes (accounting for the stationary phase culture characteristics), MTT was added for 4 h, followed by overnight incubation with sodium dodecyl sulfate (SDS) for spectrophotometric (Biotek model ELx800, Winooski, VT, USA) reading at 540 nm.

[2] = system: L. infantum promastigotes; test: In vitro leishmanicidal activity (MTT) in promastigote forms; assay type: cell-based, Leishmania infantum; conditions: CC50 (PBMCs) / IC50 promastigotes
Procedure: as §1
The antileishmanial activity of compounds against metacyclic promastigote populations was assessed using the MTT (ACROS, Livingston, NJ, USA) assay for cell viability analysis. […]
In 96-well plates, initial screening was performed with serial dilutions (400 to 3.12 μM) of compounds 3a–c and 4a–c in duplicate. […] Following 72 h-treatment of promastigotes and 24 h-treatment of amastigotes (accounting for the stationary phase culture characteristics), MTT was added for 4 h, followed by overnight incubation with sodium dodecyl sulfate (SDS) for spectrophotometric (Biotek model ELx800, Winooski, VT, USA) reading at 540 nm.

**Q.** Which results are given for `C[C@@H]1[C@H](O)[C@@H](C)/C=C/C=C/C=C/C=C/C=C/C=C/C=C/[C@H](O[C@@H]2O[C@H](C)[C@@H](O)[C@H](N)[C@@H]2O)C[C@@H]2O[C@](O)(C[C@@H](O)C[C@@H](O)[C@H](O)CC[C@@H](O)C[C@@H](O)CC(=O)O[C@H]1C)C[C@H](O)[C@H]2C(=O)O` [AmB, Amphotericin B, reference compound]?
**A.** SI (amastigotes) [1]: 33.6; SI (promastigotes) [2]: 34.4

— publication PMC12649483, “Novel Chalcone Derivatives as Anti-Leishmania infantum Agents with Potential Synergistic Activity and In Silico Insights” (Antibiotics, 2025)
